Pooled drug test results. Numbers come from NIAID ChemDB, via PubChem.

Common to all: tests in culture; organism: HIV-1

Fold resistance has wild type as its base.

structure,changes,read by,cell line,strain or isolate,read-out,result
Cc1cc(C(=O)NC(C)(C)CNCC[C@@]23CC[C@]4(C)[C@H](CC[C@@H]5[C@@]6(C)CC[C@H](OC(=O)[C@H]7C[C@@H](C(=O)O)C7(C)C)C(C)(C)[C@@H]6CC[C@]54C)C2=C(C(C)C)C(=O)C3)n[nH]1,-,p24 / ELISA,MT-2,92HT599,EC50,<1 µM
O=C(c1ccccc1)N(CCc1ccccc1)C[C@H](O)CN(CC1CCCC1)S(=O)(=O)C1CS(=O)(=O)CC1O,-,p24,CEM,IIIB,EC90,1 µM
COc1cc(Cl)ccc1C(=O)NC(C)(C)CNC(=O)C[C@@]12CC[C@]3(C)[C@H](CC[C@@H]4[C@@]5(C)CC[C@H](OC(=O)[C@H]6C[C@@H](C(=O)O)C6(C)C)C(C)(C)[C@@H]5CC[C@]43C)C1=C(C(C)C)C(=O)C2,-,p24 / ELISA,MT-2,92HT599,EC50,<1 µM
Cc1cc(S(N)(=O)=O)ccc1NC(=O)COc1ccc(Cl)cc1C(=O)c1cc(F)cc(F)c1,RT-L100I,β-galactosidase,HeLa + HELA CD4+,HXB2,fold resistance,~1
COc1ccc(S(=O)(=O)N(CC(C)C)C[C@@H](O)CCNc2cc(C(C)(C)C)sc2C(N)=O)cc1,-,p24,CEM,IIIB,EC90,1 µM
CC(C)C1=C2[C@H]3CC[C@@H]4[C@@]5(C)CC[C@H](OC(=O)[C@H]6C[C@@H](C(=O)O)C6(C)C)C(C)(C)[C@@H]5CC[C@@]4(C)[C@]3(C)CC[C@@]2([C@@H](O)CNC(=O)C2(N)CC2)CC1=O,-,p24 / ELISA,MT-2,92HT599,EC50,<1 µM
Cc1cc(C#N)cc(C(=O)c2cc(Cl)ccc2OCC(=O)Nc2ccc(S(N)(=O)=O)cc2C)c1,RT-V108I Y181C,β-galactosidase,HeLa + HELA CD4+,HXB2,fold resistance,~1
COCCOc1ccc(C(=O)NC[C@H](O)[C@@]23CC[C@]4(C)[C@H](CC[C@@H]5[C@@]6(C)CC[C@H](OC(=O)[C@H]7C[C@@H](C(=O)O)C7(C)C)C(C)(C)[C@@H]6CC[C@]54C)C2=C(C(C)C)C(=O)C3)cc1,-,p24 / ELISA,MT-2,92HT599,EC50,<1 µM
O=C1Nc2ccc(Cl)cc2[C@@](C#CC2CC2)(C(F)(F)F)N1,RT-G190S,-,-,-,EC90,~0.055 µM
Cc1cc2cn[nH]c2cc1NC(=O)COc1ccc(Cl)cc1C(=O)c1cccc(C#N)c1,RT-V108I Y181C,β-galactosidase,HeLa + HELA CD4+,HXB2,EC50,<0.01 µM
CC(C)C1=C2[C@H]3CC[C@@H]4[C@@]5(C)CC[C@H](OC(=O)[C@H]6C[C@@H](C(=O)O)C6(C)C)C(C)(C)[C@@H]5CC[C@@]4(C)[C@]3(C)CC[C@@]2([C@@H](O)CNC(=O)CNC(=O)c2ccc(Cl)cc2)CC1=O,-,p24 / ELISA,MT-2,92HT599,EC50,<1 µM
O=C(COc1ccc(Cl)cc1C(=O)c1nccs1)Nc1ccc2[nH]ncc2c1,RT-Y181C,cytopathic effect / propidium iodide,MT-4,Nevirapine-resistant (RT Y181C),fold resistance,~10
CC(C)C1=C2[C@H]3CC[C@@H]4[C@@]5(C)CC[C@H](OC(=O)[C@H]6C[C@@H](C(=O)O)C6(C)C)C(C)(C)[C@@H]5CC[C@@]4(C)[C@]3(C)CC[C@@]2(CCNC(=O)c2ncccn2)CC1=O,-,p24 / ELISA,MT-2,92HT599,EC50,<1 µM
CC1(C)CC(=O)C(S(=O)(=O)N(CC2CCCC2)C[C@@H](O)CN(CCc2ccccc2)C(=O)c2ccccc2)C(=O)S1(=O)=O,-,p24,CEM,IIIB,EC90,1 µM
Cc1cc2[nH]cnc2cc1NC(=O)COc1ccc(Cl)cc1C(=O)c1cc(F)cc(C(F)(F)F)c1,RT-K103N L100I,β-galactosidase,HeLa + HELA CD4+,HXB2,fold resistance,~1
O=C1Nc2ccc(F)c(F)c2[C@@](/C=C/C2CC2)(C(F)(F)F)N1,RT-K103N V108I,-,-,-,EC90,~0.22 µM
O=C(O)c1cc(-n2cccc2)ccc1Cl,-,luciferase / cell fusion,PBMC/5.25M7,BCF02 R5 GROUP O,EC90,88.74 µM
CCc1cc(C#N)cc(C(=O)c2cc(Cl)ccc2OCC(=O)Nc2ccc(S(N)(=O)=O)cc2C)c1,RT-V106I Y181C,β-galactosidase,HeLa + HELA CD4+,HXB2,fold resistance,~10
COc1ccc(S(=O)(=O)N(CC(C)C)C[C@@H](O)CCN2CCCC[C@H]2C(=O)NC(C)(C)C)cc1,-,p24,CEM,IIIB,EC90,1 µM
Cc1cc(C)cc(C(=O)c2cc(Cl)ccc2OCC(=O)Nc2ccc(S(N)(=O)=O)cc2C)c1,RT-P225H,β-galactosidase,HeLa + HELA CD4+,HXB2,fold resistance,~1
CC(C)C1=C2[C@H]3CC[C@@H]4[C@@]5(C)CC[C@H](OC(=O)[C@H]6C[C@@H](C(=O)O)C6(C)C)C(C)(C)[C@@H]5CC[C@@]4(C)[C@]3(C)CC[C@@]2([C@@H](O)CNC(=O)C(C)(C)NC(=O)c2ccc(N3CCOCC3)cc2)CC1=O,-,p24 / ELISA,MT-2,92HT599,EC50,<1 µM

A second listing of 3 rows from above:

structure | changes | read by | cell line | strain or isolate | read-out | result
COCCOc1ccc(C(=O)NC[C@H](O)[C@@]23CC[C@]4(C)[C@H](CC[C@@H]5[C@@]6(C)CC[C@H](OC(=O)[C@H]7C[C@@H](C(=O)O)C7(C)C)C(C)(C)[C@@H]6CC[C@]54C)C2=C(C(C)C)C(=O)C3)cc1 | - | p24 / ELISA | MT-2 | 92HT599 | EC50 | <1 µM
CCc1cc(C#N)cc(C(=O)c2cc(Cl)ccc2OCC(=O)Nc2ccc(S(N)(=O)=O)cc2C)c1 | RT-V106I Y181C | β-galactosidase | HeLa + HELA CD4+ | HXB2 | fold resistance | ~10
CC1(C)CC(=O)C(S(=O)(=O)N(CC2CCCC2)C[C@@H](O)CN(CCc2ccccc2)C(=O)c2ccccc2)C(=O)S1(=O)=O | - | p24 | CEM | IIIB | EC90 | 1 µM

Blank or dashed fields: not listed here. ECn is the concentration giving n% inhibition of infection, replication or growth. Conditions beyond the fields shown may differ between rows.